Reference: PubChem BioAssay AID602481 (Broad Institute, 2012)
The list shows a part of the results, in another mix than the full data. Activity calls are given as the source filed them. No stated cut-off is given here; in the data, active means inhibition above about 40%; inconclusive means no clear call, values can overlap the other calls; inactive means below that.

test system: 7,8-diaminopelargonic acid synthase BioA (Mycobacterium tuberculosis); test: M. tuberculosis BioA enzyme inhibitors, primary screen, biochemical, plate reader, single point, HTS (AID 602481); settings: purified M. tuberculosis BioA enzyme, at 9.99 µM, active compounds read high

| SMILES | inhibition |
| --- | --- |
| ClCCSc1nnc(-c2cccnc2)o1 | inactive: 2.73% |
| CC(C)c1ccc(OP(=O)(Nc2ccccn2)Oc2ccccc2F)cc1 (stereo not drawn) | inactive: -0.226% |
| CCN(CC)C(=S)SC(NC=O)C(Cl)(Cl)Cl (stereo not drawn) | inactive: -0.542% |
| O=C(OC1CN2CCC1CC2)c1cccc2[nH]cnc12 (stereo not drawn) | inactive: -0.731% |
| O=[N+]([O-])c1ccc(-c2cc([N+](=O)[O-])c(O)c([N+](=O)[O-])c2)cc1 | inactive: 1.13% |
| C[As](=O)(O)c1cccc(C(=O)O)c1 | inactive: -0.671% |
| O=[As](O)(c1ccc(O)cc1)c1ccccc1O | inactive: 0.504% |
| Cc1ccc(OP(=O)(Nc2ccc([N+](=O)[O-])cn2)Oc2ccc(C)cc2)cc1 | inactive: -2.7% |
| COc1ccc(N/C(=N/P(=O)(N2CCOCC2)N2CCOCC2)N2CCOCC2)cc1 | inactive: -0.477% |
| Cc1cc(=O)[nH]c(N[N+](=O)[O-])n1 | inactive: -0.935% |
| O=C(OC1CN2CCC1CC2)C12CC3CC(CC(C3)C1)C2 (stereo not drawn) | inactive: -0.705% |
| O=P1(N(CCCl)CCCl)Nc2ccccc2N1 | inactive: -2.94% |
| COc1ccc(CN2/C(=N\P(=O)(Oc3ccccc3)Oc3ccccc3)Cc3ccccc3C2C2CC2)cc1 (stereo not drawn) | inactive: -1.32% |
| COc1cc(I)ccc1[As](=O)(O)O | inactive: 1.99% |
| CSc1ccc(Nc2c([N+](=O)[O-])cc([N+](=O)[O-])cc2[N+](=O)[O-])cc1 | inactive: -4.2% |
| O=C(OC1CN2CCC1CC2)c1cccc([N+](=O)[O-])c1 (stereo not drawn) | inactive: 0.111% |
| CCOC(=O)c1ccc(NC(=O)C(C)(CCl)SC)cc1 (stereo not drawn) | inactive: -0.989% |
| CCC(C)N(CC(C)C)C(=S)SC(NC(C)=O)C(Cl)(Cl)Cl (stereo not drawn) | inactive: 0.166% |
| COP1(=S)c2c(C)nn(CCC#N)c2N=C(c2ccc(F)cc2)N1C (stereo not drawn) | inactive: 2.23% |
| O=C(O)C(=O)c1ccc(N(CCCl)CCCl)cc1 | inactive: -0.771% |
| O=C(Nc1ccncc1[N+](=O)[O-])c1ccc([N+](=O)[O-])cc1[N+](=O)[O-] | inactive: -1.9% |
| O=C(COc1ccccc1)OC1CN2CCC1CC2 (stereo not drawn) | inactive: -1.82% |
| CCOC(=O)Nc1cccc([As](=O)(O)O)c1 | inactive: -0.368% |
| O=[N+]([O-])c1ccc(Nc2ccc(Oc3ccc([N+](=O)[O-])cc3[N+](=O)[O-])cc2)c([N+](=O)[O-])c1 | inactive: -0.594% |
| O=C(O)C(O)c1ccc(N(CCCl)CCCl)cc1 (stereo not drawn) | inactive: -3.04% |

| SMILES | inhibition |
| --- | --- |
| CCOC(=O)Nc1ccc([As](=O)(O)O)c(O)c1 | inactive: -0.26% |
| CC1CCNP(=O)(N(CCCl)CCCl)O1 (stereo not drawn) | inactive: -1.13% |
| COP(=O)(OC)N1CC1c1ccccc1 (stereo not drawn) | inactive: 0.135% |
| CCCCOc1ccc(C(=O)NCC2(N3CCCCC3)CCCCC2)cc1OC | inactive: -3.98% |
| Cc1ccc(S(=O)(=O)N(CCCN)CCCc2c(C)nc(N)[nH]c2=O)cc1 | inactive: 1.68% |
| O=P1(Nc2ncccn2)COc2ccccc2OC1 | inactive: -0.31% |
| Nc1cccc([As](=O)(O)c2ccccc2)c1 | inactive: -0.994% |
| NS(=O)(=O)c1cccc(NC(=O)COC(=O)C(O)(c2ccccc2)c2ccccc2)c1 | inactive: 8.36% |
| O=P1(Nc2ccc(Br)cn2)COc2ccccc2OC1 | inactive: 6.52% |
| Cc1ccc(OCC(=O)OC2CN3CCC2CC3)cc1 (stereo not drawn) | inactive: -0.275% |
| O=[As](O)(c1cccs1)c1cccs1 | inactive: 0.538% |
| Cc1ccc(C(=O)OC2CN3CCC2CC3)cc1 (stereo not drawn) | inactive: -0.542% |
| CC1CCC(C(C)C)C(OP(=O)(Nc2ccccn2)c2ccccc2)C1 (stereo not drawn) | inactive: 1.24% |
| Cc1nn(-c2ccccc2)c2c1P(=O)(N1CCOCC1)N(C)C(c1ccccc1)=N2 (stereo not drawn) | inactive: 1.47% |
| CN(C(=O)Cc1ccc(Cl)c(Cl)c1)[C@@H]1CCCC[C@H]1N1CCCC1 | inactive: -1.98% |
| CC(C)/C=N\N=C(\N)N[N+](=O)[O-] | inactive: -2.52% |
| CCOP(=O)(NC(=NC(C)c1ccccc1)NC(C)c1ccccc1)OCC (stereo not drawn) | inactive: 0.578% |
| CCC1=CC2Cc3nc4ccc(Cl)cc4c(N)c3C(C1)C2 (stereo not drawn) | inactive: 0.054% |
| O=P1(Nc2ccccn2)COc2ccccc2OC1 | inactive: -0.311% |
| CN(CCCl)Cc1cc(Cl)c(NC2=NCCN2)c(Cl)c1 | inactive: 0.453% |
| CC(C)(C)C(=O)NC(Sc1ncccn1)C(Cl)(Cl)Cl (stereo not drawn) | inactive: 0.801% |
| Clc1n[nH]nc1-c1nn[nH][15n]1 | inactive: -2.07% |
| O=P1(N(CCCl)CCCl)NCCC(C(F)(F)F)O1 (stereo not drawn) | inactive: 0.895% |
| Cc1ccc(NCCc2c([N+](=O)[O-])cc([N+](=O)[O-])cc2[N+](=O)[O-])cc1 | inactive: -0.958% |
| Nc1cccc2c([As](=O)(O)O)cccc12 | inactive: -7.78% |

| SMILES | inhibition |
| --- | --- |
| CCCOP(=S)(Nc1nc(N)cc(=O)[nH]1)OCCC | inactive: 0.396% |
| O=C(OC1CN2CCC1CC2)c1ccc(Cl)cc1 (stereo not drawn) | inactive: 0.58% |
| CS(=O)(=O)c1ccc(Cl)c(NC(=O)COC(=O)C(O)(c2ccccc2)c2ccccc2)c1 | inactive: 5% |
| O=[As](O)(O)c1cccnc1 | inactive: -0.254% |
| O=[As](O)(c1cccc(O)c1)c1cccc(O)c1 | inactive: -2.39% |
| Cc1cccc(OCC(=O)OC2CN3CCC2CC3)c1 (stereo not drawn) | inactive: 0.481% |
| NC(=O)Nc1ccc([As](=O)(O)O)cc1 | inactive: -1.26% |
| CN(C(=O)Cc1ccccc1)[C@@H]1CC[C@]2(CCCO2)C[C@H]1N1CCCC1 | inactive: -1.13% |
| CCOP1(=S)c2c(C)nn(CCC#N)c2N=C(c2ccc(F)cc2)N1C (stereo not drawn) | inactive: 2.32% |
| N#CCCN(C(=O)COC(=O)C(O)(c1ccccc1)c1ccccc1)c1ccc(F)cc1 | inactive: 0.0095% |
| CN(C(=O)Cc1ccc(Cl)c(Cl)c1)[C@H]1CC[C@@]2(CCCO2)C[C@@H]1N1CCCC1 | inactive: -0.203% |
| CN(C)C(=O)c1cc([N+](=O)[O-])cc2c1-c1c(cc([N+](=O)[O-])cc1[N+](=O)[O-])C2=O | inactive: 1.4% |
| O=[N+]([O-])c1ccc2c(c1)nnn2O | inactive: -1.11% |
| O=P(Nc1nccs1)(c1ccccc1)c1nc2ccccc2s1 (stereo not drawn) | inactive: 0.591% |
| CCOP1(=S)c2c(C)nn(CCC#N)c2N=C(c2ccccc2F)N1C (stereo not drawn) | inactive: 1.27% |
| O=C(O)COc1ccc([As](=O)(O)O)cc1[N+](=O)[O-] | inactive: -0.213% |
| Nc1ccccc1[As](=O)(O)c1ccccc1 | inactive: -1.31% |
| CCC(=O)N1C2C3N(C(=O)CC)C1C1N(C(=O)CC)C(C(N1C(=O)CC)N3C(=O)CC)N2C(=O)CC | inactive: -2.16% |
| O=C(OC1CN2CCC1CC2)c1ccccc1 (stereo not drawn) | inactive: 0.725% |
| CC(=O)NC(SC(=S)N(CC(C)C)CC(C)C)C(Cl)(Cl)Cl (stereo not drawn) | inactive: -0.701% |
| COC(=O)c1cc2c(s1)N=C(c1ccccc1)N(C)P2(=O)N1CCOCC1 (stereo not drawn) | inactive: -4.71% |
| CN(C)C(=O)Oc1noc2ccccc12 | inactive: 0.084% |
| CC(NC(=O)COC(=O)C(O)(c1ccccc1)c1ccccc1)c1ccccc1 (stereo not drawn) | inactive: 0.15% |
| Cc1ccc(NP(=O)(Oc2cccc(C)c2)Oc2cccc(C)c2)nc1 | inactive: -1.09% |
| CCNC(=S)/N=C(\N)N[N+](=O)[O-] | inactive: 0.897% |

| SMILES | inhibition |
| --- | --- |
| O=P1(N(CCCl)CCCl)OCCC2CCCCN21 (stereo not drawn) | inactive: -3.78% |
| C[C@@H]1C=CCP(=O)(Oc2ccccc2)O1 (stereo partly drawn) | inactive: -1.3% |
| C[C@H]1OP(=O)(Oc2ccccc2)C[C@@H]2O[C@@H]21 (stereo partly drawn) | inactive: -1.58% |
| Cc1ccccc1CN(C)C(=O)COC(=O)C(O)(c1ccccc1)c1ccccc1 | inactive: -0.335% |
| CC(=O)c1ccc(N2CC2c2ccncc2)cc1 (stereo not drawn) | inactive: 0.949% |
| CC(=O)Nc1ccc(Oc2c([N+](=O)[O-])cc([N+](=O)[O-])cc2[N+](=O)[O-])cc1 | inactive: -1.79% |
| CC(=O)Nc1ccc([As](=O)(O)O)c(O)c1 | inactive: -0.589% |
| O=P1(Nc2nc3ccc(Cl)cc3s2)COc2ccccc2O1 (stereo not drawn) | inactive: -1.88% |
| CCc1cc(O)c([N+](=O)[O-])c(C)c1[N+](=O)[O-] | inactive: 0.262% |
| O=P(Nc1nccs1)(c1ccccc1)c1ccccc1 | inactive: -0.58% |
| c1nnnn1CCn1cnnn1 | inactive: -1.47% |
| O=[As](O)(c1ccccc1)c1ccc(O)cc1 | inactive: -2.15% |
| CC(=O)NC(SC(=S)N(C)C)C(Cl)(Cl)Cl (stereo not drawn) | inactive: -0.624% |
| O=[N+]([O-])c1ccc(O)c(/C=N/Nc2ccc([N+](=O)[O-])cc2[N+](=O)[O-])c1 | inactive: -4.26% |
| O=C(OC1CN2CCC1CC2)c1cccc(Cl)c1 (stereo not drawn) | inactive: -0.599% |
| Nc1ccc([As](=O)(O)c2ccc([N+](=O)[O-])cc2)cc1 | inactive: 4.6% |
| CN(C)C1(CNC(=O)c2ccc(Cl)c(S(N)(=O)=O)c2)CCCCC1 | inactive: 0.342% |
| O=P(Nc1ccccn1)(c1ccc(Br)cc1)c1ccc(Br)cc1 | inactive: -2.41% |
| Nc1ccc(CCCCOc2ccccc2)cc1 | inactive: 2.8% |
| COc1ccc(N)c([N+](=O)[O-])c1[N+](=O)[O-] | inactive: 2.24% |
| C[C@H]1OP(=O)(Oc2ccccc2)[C@H](O)[C@H](O)[C@H]1N=[N+]=[N-] (stereo partly drawn) | inactive: -41.8% |
| O=P(Nc1nc2ccccc2s1)(c1ccccc1)c1ccccc1 | inactive: -2.41% |
| O=C(O)CNc1ccc([As](=O)(O)O)cc1 | inactive: -2.31% |
